A mixed list of measured activities; the numbers were collected in NIAID ChemDB.

Common to all: growth or infection tests; agent: Candida krusei

A number after MIC or MFC names an inhibition level or a share of isolates. Conditions beyond the fields shown may differ between rows. An empty or dashed field is not shown.

structure	strain or isolate	method	measure	setting	result
C[n+]1ccn(COCCCOCn2cc[n+](C)c2)c1	ATCC 6258	agar diffusion	MIC100		0.237 µM
CN(Cc1ccc(S(=O)(=O)NC(C)(C)C)cc1)CC(O)(Cn1cncn1)c1ccc(F)cc1F	8	resazurin	MIC		1 µg/mL
CC1C(=O)N(Cc2ccccc2)C(=O)C1C	CCC 117-2000	broth dilution / turbidity	MIC		125 µg/mL
CN(Cc1ccc(S(=O)(=O)N2CCOCC2)cc1)CC(O)(Cn1cncn1)c1ccc(F)cc1F	8	resazurin	MIC		2.7 µg/mL
CCCCCCCCCCCCn1cc[n+](COCCCOC[n+]2ccn(CCCCCCCCCCCC)c2)c1	ATCC 6258	agar diffusion	MIC100		8 µM
Ic1ccc(-c2csc(N/N=C\c3cccc4ccccc34)n2)cc1	Clinical isolates		MIC	48 h	2 µg/mL
CC1C(=O)N(CCc2ccccc2)C(=O)C1C	CCC 117-2000	broth dilution / turbidity	MIC		250 µg/mL
CCCCCCCn1cc[n+](COCCCCCCOC[n+]2ccn(CCCCCCC)c2)c1	ATCC 6258	agar diffusion	MIC100		9 µM
C=CCc1ccc(OC)c(OC)c1	342	turbidity	MIC90		345 µg/mL
Cc1nc2c(s1)C(=O)C(Nc1ccc(Br)cc1)=C(Cl)C2=O	KCCM 11655	broth dilution	MIC		12.5 µg/mL
CCCCCCCCn1cc[n+](COCCOC[n+]2ccn(CCCCCCCC)c2)c1	ATCC 6258	agar diffusion	MIC100		10 µM
CC(C)c1ccc(NS(=O)(=O)c2ccc(CN(C)CC(O)(Cn3cncn3)c3ccc(F)cc3F)cc2)cc1	506	resazurin	MIC		1.8 µg/mL
CCCCCCCCCCCCn1cc[n+](COCCCCCCOC[n+]2ccn(CCCCCCCCCCCC)c2)c1	ATCC 6258	agar diffusion	MIC100		2 µM
C[C@@H]1CC(=O)N(c2ccc(Cl)cc2)C1=O	CCC 117-2000	broth dilution / turbidity	MIC		125 µg/mL
Nc1[nH]c(=O)ncc1F		broth dilution	MIC		6.3 µg/mL
CCCCCn1cc[n+](COCCOC[n+]2ccn(CCCCC)c2)c1	ATCC 6258	agar diffusion	MIC100		712 µM
CCc1c(OC)ccc2sc(C)nc12	KCCM 11655	broth dilution	MIC		100 µg/mL
CCCCCCCn1cc[n+](COCCCOC[n+]2ccn(CCCCCCC)c2)c1	ATCC 6258	agar diffusion	MIC100		77 µM
CN(Cc1ccc(S(=O)(=O)Nc2ccccc2)cc1)CC(O)(Cn1cncn1)c1ccc(F)cc1F	8	resazurin	MIC		1.8 µg/mL
CC1CC(=O)N(c2ccc(F)cc2)C1=O	CCC 117-2000	broth dilution / turbidity	MIC		125 µg/mL
CCOc1ccc2nc3cc(N=C4NC(=O)/C(=C\C=C\c5ccc([N+](=O)[O-])o5)S4)ccc3c(N)c2c1		broth dilution	MIC		500 µg/mL
C[C@@H]1C(=O)N(CCCCc2ccccc2)C(=O)[C@@H]1C	CCC 117-2000	broth dilution / turbidity	MIC		62.5 µg/mL
CCCCCCCCCCCCn1cc[n+](COCCCCOC[n+]2ccn(CCCCCCCCCCCC)c2)c1	ATCC 6258	agar diffusion	MIC100		8 µM
C[C@@H]1CC(=O)N(CCCc2ccccc2)C1=O	CCC 117-2000	broth dilution / turbidity	MIC		125 µg/mL
Cc1nc2c(s1)C(=O)C(Nc1cccc(F)c1)=C(Cl)C2=O	KCCM 11655	broth dilution	MIC		100 µg/mL

Repeating the final 2 entries:

structure | strain or isolate | method | measure | setting | result
C[C@@H]1CC(=O)N(CCCc2ccccc2)C1=O | CCC 117-2000 | broth dilution / turbidity | MIC |  | 125 µg/mL
Cc1nc2c(s1)C(=O)C(Nc1cccc(F)c1)=C(Cl)C2=O | KCCM 11655 | broth dilution | MIC |  | 100 µg/mL